Results of unrelated studies side by side (data: NIAID ChemDB).

Common to all: toxicity to cultured cells; cell line: MT-4; endpoint: CC50

Rows are shuffled and stem from different studies. Blank or dashed fields: not listed here. CCn is the concentration with n% toxicity to the cells.

smiles	method	value
CS(=O)(=O)OCC1Nc2ccccc2S(=O)(=O)n2cccc21	-	130 µM
CSc1nc2ccccc2c(=O)n1/N=C1\C(=O)N(CN2CCCCC2)c2ccc(Br)cc21	MTT	10.2 µM
N#C/C(=C\c1cccs1)n1nc2ccccc2n1	-	>100 µM
O=C(CC1Nc2ccccc2S(=O)(=O)n2cccc21)Nc1ccc(Cl)cc1	-	12.5 µM
CCC(C)C(NC(=O)C(N)CO)C(=O)NC(C)C(=O)NC(CCC(=O)O)C(=O)Nc1cccc(O)c1	-	10 µM
CSc1nc2ccccc2c(=O)n1/N=C1\C(=O)N(CN2CCOCC2)c2ccccc21	MTT	16.8 µM
CCOCn1c(Cc2cccc(CCC3CO3)c2)c(CC)c(=O)[nH]c1=O	MTT	>100 µM
CSc1nc2ccccc2c(=O)n1/N=C1\C(=O)N(CN2CCCCC2)c2ccc(Cl)cc21	MTT	10.4 µM
C=C1CN(S(C)(=O)=O)CCCN(Cc2ccccc2)CCCN(S(C)(=O)=O)C1	-	>75 µM
COC(=O)CC1c2cccn2S(=O)(=O)c2ccccc2N1C(=O)c1ccc(C)cc1	-	>244 µM
c1ccc(COCC2OC(OC3C4COC(O4)C(OCc4ccccc4)C3OCc3ccccc3)C(OCc3ccccc3)C(OCc3ccccc3)C2OCc2ccccc2)cc1	MTT	>200 µg/mL
CC(C)c1nc(COC(=O)N[C@H](C(=O)N[C@@H](Cc2ccccc2)[C@H](O)CN2CCN(Cc3ccc(F)cc3)C[C@H]2C(=O)NC(C)(C)C)C(C)C)cs1	-	15 µM
C=CCOCn1c(Cc2cccc(OCC=C)c2)c(CC)c(=O)[nH]c1=O	MTT	44 µM
N#Cc1cc(Cl)cc(Oc2cc(OCc3[nH]nc4cnccc34)ccc2Cl)c1	-	>8.3 µM
CCC[C@@]1(CCc2ccccc2)CC(O)=C([C@H](CC)c2cccc(NS(=O)(=O)c3ccc(C(F)(F)F)cn3)c2)C(=O)O1	-	18.6 µM
C=C1CN(S(=O)(=O)c2ccc(C)cc2)CCCN(Cc2ccncc2)CCCN(S(=O)(=O)c2ccc(C)cc2)C1	-	32.4 µM
O=C(O)CC1Nc2ccccc2S(=O)(=O)n2cccc21	-	>342 µM
Cc1nc(COC(=O)N[C@H](C(=O)N[C@@H](Cc2ccccc2)[C@H](O)CN2CCN(Cc3ccc4c(c3)OCO4)C[C@H]2C(=O)NC(C)(C)C)C(C)C)cs1	-	56 µM
CCCCC1(CCc2cccc(NS(=O)(=O)c3ccc(C#N)cn3)c2)COC(=O)C(C(CC)c2cccc(NS(=O)(=O)c3ccc(C#N)cn3)c2)=C1O	-	65.7 µM
CC(C)(C)OC(=O)NC(Cc1ccc(OCc2ccccc2)cc1)C(=O)N1CCC(O)C1	-	>100 µM
C=C1CN(S(=O)(=O)c2ccc(C)cc2)CCCN(CCC(C)C)CCCN(S(=O)(=O)c2ccc(C)cc2)C1	-	32.5 µM
CC(C)c1nc(COC(=O)N[C@@H](C(=O)N[C@@H](Cc2ccccc2)[C@H](O)CN2CCN(Cc3cncs3)C[C@H]2C(=O)NC(C)(C)C)C(C)C)cs1	-	18 µM
C=C1CN(S(=O)(=O)c2ccc(C)cc2)CCCN(Cc2ccccn2)CCCN(S(=O)(=O)c2ccc(C)cc2)C1	-	>75 µM
CC(C)c1nc(COC(=O)N[C@H](C(=O)N[C@@H](Cc2ccccc2)[C@H](O)CN2CCN(Cc3ccc4c(c3)OCO4)C[C@H]2C(=O)NC(C)(C)C)C(C)C)cs1	-	13 µM
CC(C)CC(NC(=O)OC(C)(C)C)C(=O)N1CCC(=O)C1	-	>100 µM
N#C/C(=C/c1ccc2ccccc2c1)n1nnc2ccccc21	-	0.4 µM
CCCCC1(CCc2cccc(NS(=O)(=O)c3ccccn3)c2)COC(=O)C(C(CC)c2cccc(NS(=O)(=O)c3ccccn3)c2)=C1O	-	36.3 µM
COc1cc(CN2CCN(C[C@@H](O)[C@H](Cc3ccccc3)NC(=O)[C@@H](NC(=O)N(C)Cc3csc(C(C)C)n3)C(C)C)[C@H](C(=O)NC(C)(C)C)C2)ccc1O	-	20 µM
CC(C)(C)OC(=O)NC(Cc1ccc(O)cc1)C(=O)N1CCC(=O)C1	-	50 µM
C=CCCc1cccc(Cc2[nH]c(=S)[nH]c(=O)c2CC)c1	MTT	80 µM
C=C1CN(S(=O)(=O)c2ccc(C)cc2)CCCN(C(C)C)CCCN(S(=O)(=O)c2ccc(C)cc2)C1	-	38.9 µM
N#C/C(=C/c1ccccc1[N+](=O)[O-])n1nnc2ccccc21	-	31 µM
C=CCCc1cccc(Cc2c(CC)c(=O)[nH]c(=O)n2COCC=C)c1	MTT	42 µM
CSc1nc2ccccc2c(=O)n1/N=C1\C(=O)N(CN2CCOCC2)c2ccc(Cl)cc21	MTT	13.9 µM
O=C(NCc1ccc(F)cc1)C1C(=O)N(O)C(=O)c2ccccc21	MTT	202 µM
CSc1nc2ccccc2c(=O)n1/N=C1\C(=O)N(CN(C)C)c2ccc(Br)cc21	MTT	16.3 µM
C=CCOc1cccc(Cc2c(CC)c(=O)n(COCC)c(=O)n2COCC)c1	MTT	41 µM
C=C1CN(S(=O)(=O)c2ccc(C)cc2)CCCN(C(C)CC)CCCN(S(=O)(=O)c2ccc(C)cc2)C1	-	42.6 µM
CCOCn1c(Cc2ccccc2)c(C(C)C)c(=O)[nH]c1=O	MTT	>100 µM
NC(=O)/C(=C\c1ccccc1)n1nc2ccccc2n1	-	39 µM
CCOC(=O)C1c2cccn2S(=O)(=O)c2ccccc2N1C(=O)CBr	-	10.7 µM
N#C/C(=C/c1ccccc1Cl)n1nnc2ccccc21	-	2 µM
NS(=O)(=O)c1ccc(NC(=O)c2ccccc2SSc2ccccc2C(=O)Nc2ccc(S(N)(=O)=O)cc2)cc1	-	>120 µM
O=S1(=O)c2ccccc2NC(CO)c2cccn21	-	200 µM
CSc1nc2ccccc2c(=O)n1/N=C1\C(=O)Nc2ccc(Cl)cc21	MTT	40.3 µM
C=CCCc1cccc(Cc2c(CC)c(=O)n(COCC)c(=O)n2COCC)c1	MTT	45 µM
N#C/C(=C\c1ccc(F)cc1)n1nnc2ccccc21	-	3 µM
CC(C)CC(NC(=O)OC(C)(C)C)C(=O)N1CCC(O)C1	-	>100 µM

5 of the rows above, restated:

smiles | method | value
CCC(C)C(NC(=O)C(N)CO)C(=O)NC(C)C(=O)NC(CCC(=O)O)C(=O)Nc1cccc(O)c1 | - | 10 µM
C=CCCc1cccc(Cc2[nH]c(=S)[nH]c(=O)c2CC)c1 | MTT | 80 µM
CC(C)c1nc(COC(=O)N[C@H](C(=O)N[C@@H](Cc2ccccc2)[C@H](O)CN2CCN(Cc3ccc(F)cc3)C[C@H]2C(=O)NC(C)(C)C)C(C)C)cs1 | - | 15 µM
CCCCC1(CCc2cccc(NS(=O)(=O)c3ccccn3)c2)COC(=O)C(C(CC)c2cccc(NS(=O)(=O)c3ccccn3)c2)=C1O | - | 36.3 µM
CSc1nc2ccccc2c(=O)n1/N=C1\C(=O)N(CN2CCOCC2)c2ccc(Cl)cc21 | MTT | 13.9 µM